Data on 6 molecules can be found in patent publication US9534007B2, “Methods and compositions for treatment of cyanide and hydrogen sulfide toxicity” (dated 2017).

A short description of test [1]: Lethal cyanide poisoning in swine, intravenous antidote one minute post apnea. The following applies: for pH: arterial blood; for pH / Lactate / bicarbonate: at 60 min; for animals that died before completion of the experiment: between antidote at one min after onset of apnea and 60 min later, N = 10 per group; for animals in which cyanide was not detected: whole blood, immediately after treatment.

A short description of test [2]: Lethal rabbit model of sulfide poisoning, continuous intravenous NaSH infusion. The conditions noted are these: intravenous antidote; NaSH 3 mg/min up to 90 min; cobinamide and hydroxocobalamin 25 mg/kg, sodium nitrite 3.5 mg/kg.
A short description of test [3]: Rescue of mice from sulfide gas exposure (15-25 model), intraperitoneal antidote.
The mark [4] stands for this setting: 2.67 ppt H2S, CbiS2O3 7.5 μmole, hydroxycobalamin 25 μmole, sodium thiosulfate 7.5 mole, 60 min observation, 6 mice per group (FIG. 25).
Setting [5] is: cobinamide 7.5 μmol (given as the thiosulfate derivative), hydroxocobalamin 25 μmol, equivalent thiosulfate dose, 5 mice per group (FIG. 24).
The mark [6] stands for this setting: cyanide-poisoned swine, 60 min after IV bolus, hydroxocobalamin 65 mg/kg, dinitrocobinamide 12.5 mg/kg.

As to `O=NO`, the survival result in test [1] (sodium nitrite only, same amount as present in the dinitrocobinamide, five animals) is given as “None of these animals survived”. This molecule gave an average survival time in test [2] of 37 min.

For `O=S(O)(O)=S`, the survival rate in test [3] (setting [4]) amounted to 17%; in test [3] (setting [5]) it was 20%.

Turning to cobinamide, in test [2], the average survival time is 84 min. Besides, in test [3] (setting [5]), the survival rate stood at 80%.

cobinamide thiosulfate: the survival rate in test [3] (setting [4]) came to 83%.

Regarding dinitrocobinamide, in test [1], the pH is listed as 7.44, the Lactate amounted to 1.5 mmol/L, the bicarbonate stood at 28 mEq/L and the “animals that died before completion of the experiment” value was “one animal”. In addition, the “animals in which cyanide was not detected” value in test [1] is 7/10. The molecule further returned a survival in test [1] (setting [6]) of 90%. In test [1] (end of the experiment), the “Mean arterial pressure (MAP)” value is 71±10 mm Hg and the systolic blood pressure came out at 91±15.1 mm Hg. For the same molecule, the “potency relative to hydroxocobalamin (dose required to rescue swine)” value in test [1] (milligram per kilogram basis) is listed as “five times more hydroxocobalamin than cobinamide”. Further, the average survival time in test [2] turned out to be 81 min.

Turning to hydroxocobalamin, in test [1], the pH was determined as 7.44, the Lactate is given as 1.2 mmol/L, the bicarbonate is listed as 28 mEq/L and the “animals that died before completion of the experiment” value is “One animal”. In test [1], the “animals in which cyanide was not detected” value is 10/10. The survival in test [1] (setting [6]) amounted to 90%. The “Mean arterial pressure (MAP)” value in test [1] (end of the experiment) is listed as 88±15.2 mm Hg. In test [2], this molecule had an average survival time of 41 min. This molecule also registered a survival rate in test [3] (setting [4]) of 17%. Also, in test [3] (setting [5]), the survival rate stood at 20%.
